Source: patent publication US20250034125A1, “COMPOUNDS AND USES THEREOF” (JANSSEN PHARMACEUTICA NV, priority 2019, published 2025)
pIC50: −log10 of the molar value.

Experiments:
SCD1 = target: T1, SCD1 (Homo sapiens, UniProt O00767); assay: Growth inhibition of yeast (ole1Δ) expressing human SCD1 as the sole desaturase; type: cell-based
T1 construct: host or cells: Saccharomyces cerevisiae ole1Δ strain (W303 pdr1Δ pdr3Δ background), plasmid pRS316, TDH3 promoter
T1 sequence (O00767 1-359): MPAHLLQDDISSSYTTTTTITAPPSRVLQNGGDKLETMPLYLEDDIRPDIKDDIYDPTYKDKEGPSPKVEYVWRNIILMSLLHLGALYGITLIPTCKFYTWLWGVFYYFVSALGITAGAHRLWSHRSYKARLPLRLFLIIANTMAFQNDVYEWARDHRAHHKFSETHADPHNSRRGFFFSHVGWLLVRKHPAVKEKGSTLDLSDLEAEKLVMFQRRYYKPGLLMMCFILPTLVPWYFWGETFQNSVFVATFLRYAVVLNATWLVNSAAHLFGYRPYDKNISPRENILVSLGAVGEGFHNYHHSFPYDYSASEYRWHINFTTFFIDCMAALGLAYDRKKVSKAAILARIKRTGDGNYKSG

SCD5 = target: T2, SCD5 (Homo sapiens, UniProt Q86SK9); assay: Growth inhibition of yeast (ole1Δ) expressing human SCD5 as the sole desaturase; type: cell-based
T2 construct: host or cells: Saccharomyces cerevisiae ole1Δ strain (W303 pdr1Δ pdr3Δ background), plasmid pRS316, TDH3 promoter
T2 sequence (Q86SK9 1-330): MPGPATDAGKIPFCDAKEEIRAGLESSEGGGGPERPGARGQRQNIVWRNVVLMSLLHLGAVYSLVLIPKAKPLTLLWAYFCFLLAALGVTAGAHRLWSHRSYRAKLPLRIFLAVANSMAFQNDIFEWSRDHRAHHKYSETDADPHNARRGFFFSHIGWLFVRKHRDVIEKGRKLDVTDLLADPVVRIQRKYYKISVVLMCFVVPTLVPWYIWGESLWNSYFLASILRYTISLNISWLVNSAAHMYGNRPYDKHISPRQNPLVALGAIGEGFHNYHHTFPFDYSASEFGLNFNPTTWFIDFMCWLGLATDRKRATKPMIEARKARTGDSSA

For `Cn1nc(NC(=O)N2CCC(Nc3ccccc3)CC2)ccc1=O` [Compound 91, N-(1-methyl-6-oxo-1,6-dihydropyridazin-3-yl)-4-(phenylamino) piperidine-1-carboxamide], the pIC50 (SCD1) was < 4.35 and the pIC50 (SCD5) was < 4.35.
